A mixed list of measured activities; the numbers were collected in NIAID ChemDB.

Common to all: whole-cell or culture tests; agent: Bovine viral diarrhea virus; read-out: EC50

Rows are shuffled and stem from different studies. ECn is the concentration giving n% inhibition of infection, replication or growth. An empty or dashed field is not shown.

structure,method,cell line,strain,value
Cc1cn([C@@H]2O[C@H](CO)[C@](O)(C(F)(F)F)[C@H]2O)c(=O)[nH]c1=O,-,-,-,≥100 µM
Nc1nc(=O)n2ccn([C@@H]3O[C@H](CO)C[C@H]3O)c2n1,-,-,-,>100 µM
Brc1ccc(Cn2ccc3nc(/C=C/c4ccccc4)nc-3c2)cc1,cytopathic effect,MDBK,PE515,0.017 µg/mL
CCCN(CCC)CCSc1nnc2c(n1)[nH]c1ccccc12,plaque count,MDBK,NADL,0.0006 µM
CONc1ncnc2c1ncn2[C@@H]1O[C@H](CO)[C@@H](O)[C@@]1(C)O,replicon,MDBK,NADL,300 µM
CC1S/C(=N/N=C2\C(=O)Nc3ccc([N+](=O)[O-])cc32)N(c2ccccc2)C1=O,cytopathic effect,MDBK,-,>7 µg/mL
C[C@@]1(O)[C@H](O)[C@@H](CO)O[C@H]1n1cnc2c(N(CCO)CCO)ncnc21,virus yield,MDBK,NADL,>100 µM
CN(C)Nc1ncnc2c1ncn2[C@@H]1O[C@H](CO)[C@@H](O)[C@@]1(C)O,replicon,MDBK,NADL,20 µM
Cc1ccccc1Cn1ccc2nc(-c3ccccc3)nc-2c1,cytopathic effect,MDBK,PE515,0.019 µg/mL
C=CCNC(=S)N=Nc1c(O)n(CN2CCOCC2)c2ccc([N+](=O)[O-])cc12,cytopathic effect,MDBK,-,40 µg/mL
N#Cc1cccc(Cn2ccc3nc(-c4ccccc4)nc-3c2)c1,cytopathic effect,MDBK,PE515,0.245 µg/mL
Cc1ccc(N2C(=O)CS/C2=N/N=C2\C(=O)Nc3ccc([N+](=O)[O-])cc32)cc1,cytopathic effect,MDBK,-,>50 µg/mL
NCCCCC(N)C(=O)Nc1ccc(-c2ccc(NC(=O)Nc3nc4c(Cl)cccc4s3)nc2)cc1,plaque count,MDBK,F78I,9.6 µM
O=c1nc(NO)ccn1[C@@H]1O[C@H](CO)[C@@H](O)[C@H]1O,-,MDCK,-,<5.4 µM
CCCCNC(=S)N=Nc1c(O)n(CN2CCOCC2)c2ccc([N+](=O)[O-])cc12,cytopathic effect,MDBK,-,>19 µg/mL
Nc1nc(=O)n2ccn([C@@H]3O[C@H](CO)[C@@H](O)[C@H]3O)c2n1,-,-,-,31 µM
c1ccc(CCOn2ccc3nc(-c4ccccc4)nc-3c2)cc1,cytopathic effect,MDBK,PE515,0.01 µg/mL
CCOc1ccccc1Nc1ncnc2c1ncn2[C@@H]1O[C@H](CO)[C@@H](O)[C@@]1(C)O,virus yield,MDBK,NADL,>100 µM
C[C@@]1(O)[C@H](O)[C@@H](CO)O[C@H]1n1cnc2c(NN)ncnc21,replicon,MDBK,NADL,60 µM
Fc1cccc(F)c1Cn1ccc2nc(-c3ccccc3)nc-2c1,cytopathic effect,MDBK,PE515,0.04 µg/mL
Nc1ccn([C@@H]2O[C@H](CO)[C@](O)(C(F)(F)F)[C@H]2O)c(=O)n1,-,-,-,≥100 µM
Brc1ccc(Cn2ccc3nc(-c4ccccc4)nc-3c2)cc1,ELISA,MDBK,L2565 (TYPE 1),0.6 µM
FC(F)(F)c1ccccc1Cn1ccc2nc(-c3ccccc3)nc-2c1,cytopathic effect,MDBK,PE515,0.25 µg/mL
C[C@@]1(O)[C@H](O)[C@@H](CO)O[C@H]1n1ccn2c(=O)nc(N)nc12,-,-,-,>100 µM
C=CCNC(=S)N=Nc1c(O)[nH]c2ccc([N+](=O)[O-])cc12,cytopathic effect,MDBK,-,>50 µg/mL
CC(=O)NNc1ncnc2c1ncn2[C@@H]1O[C@H](CO)[C@@H](O)[C@@]1(C)O,virus yield,MDBK,NADL,>100 µM
CNC(=S)N=Nc1c(O)[nH]c2ccc([N+](=O)[O-])cc12,cytopathic effect,MDBK,-,>50 µg/mL
Fc1cccc(-c2nc3ccn(Cc4ccc(F)cc4F)cc-3n2)c1,cytopathic effect,MDBK,-,0.27 µg/mL
Cc1cccc(Nc2ncnc3c2ncn3[C@@H]2O[C@H](CO)[C@@H](O)[C@@]2(C)O)c1,virus yield,MDBK,NADL,>100 µM
O=[N+]([O-])c1ccc2c(c1)c(N=NC(=S)NC1CCCCC1)c(O)n2CN1CCOCC1,cytopathic effect,MDBK,-,>17 µg/mL